Compound potency records, mixed from different reports. Data source: NIAID ChemDB in PubChem.

Shared fields: growth or infection tests; species: Candida albicans; endpoint: zone

Lines come from different laboratories, so protocols vary. Zones are inhibition diameters on agar. Blank or dashed fields: not listed here.

smiles,dose,strain,read by,value
CCC(C)CCCCCCCCCCC(=O)N[C@H]1C[C@@H](O)[C@@H](N=[N+]=[N-])NC(=O)C2[C@@H](O)[C@@H](C)CN2C(=O)C(CO)NC(=O)C([C@H](O)C(N=[N+]=[N-])c2ccc(O)cc2)NC(=O)NC(=O)[C@@H]2C[C@@H](O)CN2C(=O)[C@H]([C@@H](C)O)NC1=O,1 mg/mL,IV,agar,15 mm
Clc1ccccc1C(c1ccccc1)(c1ccccc1)n1ccnc1,25 µg/mL,,agar,45 mm
CC1(C)CC(=O)c2cc(C3CC(c4ccc(Cl)cc4)=NO3)[nH]c2C1,1000 µg/mL,ATCC 2091,,23 mm
CCOC(=O)N1CCN(Cn2nc(C34CC5CC(CC(C5)C3)C4)n(/N=C/c3c(Cl)cccc3Cl)c2=S)CC1,200 µg/disc,IFO 3007,agar diffusion,<10 mm
CC1(C)CC(=O)c2cc(C3CC(c4ccc(Br)cc4)=NN3)[nH]c2C1,1000 µg/mL,ATCC 2091,,22 mm
CC1CCC(NC(=O)NCCn2c(-c3ccccc3)nc3ccc([N+](=O)[O-])cc3c2=O)CC1,100 µg/mL,ATCC 66027,broth dilution / agar diffusion,15 mm
CCC(C)CCCCCCCCCCC(=O)N[C@H]1C[C@@H](O)[C@@H](SCC(=O)OC)NC(=O)C2[C@@H](O)[C@@H](C)CN2C(=O)C(CO)NC(=O)C([C@H](O)C(SCC(=O)OC)c2ccc(O)cc2)NC(=O)NC(=O)[C@@H]2C[C@@H](O)CN2C(=O)[C@H]([C@@H](C)O)NC1=O,5 mg/mL,IV,agar,19 mm
CSc1ccc(NC(=O)NCCn2c(-c3ccccc3)nc3ccc([N+](=O)[O-])cc3c2=O)cc1,100 µg/mL,ATCC 66027,broth dilution / agar diffusion,15 mm
Clc1ccccc1C(c1ccccc1)(c1ccccc1)n1ccnc1,1000 µg/mL,ATCC 2091,,40 mm
CN1CCN(c2nc(Nc3ccc(C#N)c(C(F)(F)F)c3)nc(Oc3ccnc4ccccc34)n2)CC1,100 µg/mL,MTCC 183,agar,<10 mm
O=C(NCCn1c(-c2ccccc2)nc2ccc([N+](=O)[O-])cc2c1=O)Nc1ccccc1,100 µg/mL,ATCC 66027,broth dilution / agar diffusion,17 mm
CC1(C)CC(=O)c2cc(C3CC(c4ccc(Br)cc4)=NN3C(N)=S)[nH]c2C1,1000 µg/mL,ATCC 2091,,23 mm
C/C=C/C1=CC2=CC(=O)[C@](C)(OC(=O)c3c(OC)cc(O)c(O)c3C)C(=O)C2=CO1,1 µg/disc,ATCC 64548,agar diffusion,0 mm
CC(C)(C)c1cc(-c2nnc(CN3CCC(n4nc5ccccc5n4)CC3)o2)cc(C(C)(C)C)c1,600 µg/mL,,,7.08 mm
N#Cc1ccc(Nc2nc(Oc3ccnc4ccccc34)nc(N3CCN(c4ccccc4)CC3)n2)cc1C(F)(F)F,100 µg/mL,MTCC 183,agar,<10 mm
CSC1=NC(c2ccccc2)C(C#N)=C(N)N1,25 µg/mL,MTCC 227,agar diffusion,15 mm
Clc1ccccc1C(c1ccccc1)(c1ccccc1)n1ccnc1,100 µg/disc,IFO 3007,agar diffusion,21 mm
CSC1=NC(c2ccc(Cl)cc2)C(C#N)=C(N)N1,25 µg/mL,MTCC 227,agar diffusion,18 mm
CCC(C)CCCCCCCCCCC(=O)N[C@H]1C[C@@H](O)[C@@H](SCC(=O)OC)NC(=O)C2[C@@H](O)[C@@H](C)CN2C(=O)C(CO)NC(=O)C([C@H](O)C(O)c2ccc(O)cc2)NC(=O)NC(=O)[C@@H]2C[C@@H](O)CN2C(=O)[C@H]([C@@H](C)O)NC1=O,5 mg/mL,IV,agar,26 mm
Fc1cccc(F)c1/C=N/n1c(C23CC4CC(CC(C4)C2)C3)nn(CN2CCN(c3ccccc3)CC2)c1=S,200 µg/disc,IFO 3007,agar diffusion,<10 mm
CSC1=NC(c2cccc3cc4ccccc4cc23)C(C#N)=C(N)N1,50 µg/mL,MTCC 227,agar diffusion,17 mm
NNC(=O)Cc1nnc2n1-c1nc3ccccc3nc1NN2,1000 µg/mL,ATCC 2091,,22 mm
S=c1n(CN2CCN(c3ccccc3)CC2)nc(C23CC4CC(CC(C4)C2)C3)n1/N=C/c1c(Cl)cccc1Cl,200 µg/disc,IFO 3007,agar diffusion,<10 mm
Cc1ccc(C(C)C)c(O)c1,100 µg/mL,AI,agar diffusion,5 mm
COc1cc(/C=N/n2c(C34CC5CC(CC(C5)C3)C4)n[nH]c2=S)c([N+](=O)[O-])cc1OC,200 µg/disc,IFO 3007,agar diffusion,<10 mm
O=[N+]([O-])c1ccc(-c2nnc(CN3CCC(n4nc5ccccc5n4)CC3)o2)cc1Cl,1200 µg/mL,,,23.05 mm
CSC1=NC(c2ccc(O)cc2)C(C#N)=C(N)N1,25 µg/mL,MTCC 227,agar diffusion,17 mm
O=C(Cc1nnc2nnc3c(n12)Nc1ccccc1C3)NNC(=S)Nc1ccccc1,1000 µg/mL,ATCC 2091,,26 mm
Brc1ccccc1-c1nnc(CN2CCC(n3nc4ccccc4n3)CC2)o1,1200 µg/mL,,,16.75 mm
S=c1[nH]nc(C23CC4CC(CC(C4)C2)C3)n1/N=C/c1ccccc1,200 µg/disc,IFO 3007,agar diffusion,<10 mm
CC1(C)CC(=O)c2cc(C3CC(c4ccc(Cl)cc4)=NN3C(N)=S)[nH]c2C1,1000 µg/mL,ATCC 2091,,25 mm
COc1cccc(-c2nnc(CN3CCC(n4nc5ccccc5n4)CC3)o2)c1,900 µg/mL,,,9.86 mm
COc1ccc(C2N=C(SC)NC(N)=C2C#N)cc1,50 µg/mL,MTCC 227,agar diffusion,18 mm
CCOC(=O)C1CCN(Cn2nc(C34CC5CC(CC(C5)C3)C4)n(/N=C/c3ccccc3O)c2=S)CC1,200 µg/disc,IFO 3007,agar diffusion,13 mm
CCC(C)CCCCCCCCCCC(=O)N[C@H]1C[C@@H](O)[C@@H]([n+]2cc[nH]c2)NC(=O)C2[C@@H](O)[C@@H](C)CN2C(=O)C(CO)NC(=O)C([C@H](O)C(O)c2ccc(O)cc2)NC(=O)NC(=O)[C@@H]2C[C@@H](O)CN2C(=O)[C@H]([C@@H](C)O)NC1=O,1 mg/mL,IV,agar,22 mm
O=C(NCCn1c(-c2ccccc2)nc2ccc([N+](=O)[O-])cc2c1=O)Nc1cc(C(F)(F)F)ccc1Cl,100 µg/mL,ATCC 66027,broth dilution / agar diffusion,14 mm
Fc1ccc(N2CCN(Cn3nc(C45CC6CC(CC(C6)C4)C5)n(/N=C/c4c(Cl)cccc4Cl)c3=S)CC2)cc1,200 µg/disc,IFO 3007,agar diffusion,<10 mm

Repeating the final 4 entries:

smiles	dose	strain	read by	value
CCOC(=O)C1CCN(Cn2nc(C34CC5CC(CC(C5)C3)C4)n(/N=C/c3ccccc3O)c2=S)CC1	200 µg/disc	IFO 3007	agar diffusion	13 mm
CCC(C)CCCCCCCCCCC(=O)N[C@H]1C[C@@H](O)[C@@H]([n+]2cc[nH]c2)NC(=O)C2[C@@H](O)[C@@H](C)CN2C(=O)C(CO)NC(=O)C([C@H](O)C(O)c2ccc(O)cc2)NC(=O)NC(=O)[C@@H]2C[C@@H](O)CN2C(=O)[C@H]([C@@H](C)O)NC1=O	1 mg/mL	IV	agar	22 mm
O=C(NCCn1c(-c2ccccc2)nc2ccc([N+](=O)[O-])cc2c1=O)Nc1cc(C(F)(F)F)ccc1Cl	100 µg/mL	ATCC 66027	broth dilution / agar diffusion	14 mm
Fc1ccc(N2CCN(Cn3nc(C45CC6CC(CC(C6)C4)C5)n(/N=C/c4c(Cl)cccc4Cl)c3=S)CC2)cc1	200 µg/disc	IFO 3007	agar diffusion	<10 mm